Reference: paper PMC4982898, “Molecular Design, Structural Analysis and Antifungal Activity of Derivatives of Peptide CGA-N46” (Interdisciplinary Sciences, Computational Life Sciences, 2016)

Experiment: Circular dichroism, secondary structure content (CDPro)
Assay type: physicochemical
Details: peptide 0.25 mg mL^−1, 25 °C
[1] = H2O (20 mM phosphate buffer, pH 7.4)
[2] = SUV (PC:PG 3:1 small unilamellar lipid vesicles)

Substance | Random (%) (30 mM SDS) | α-Helix (%) (30 mM SDS) | β-Sheet (%) (30 mM SDS) | β-Turn (%) (30 mM SDS) | Random (%) [1] | α-Helix (%) [1] | β-Sheet (%) [1] | β-Turn (%) [1] | Random (%) [2] | α-Helix (%) [2] | β-Sheet (%) [2] | β-Turn (%) [2]
H-ALQGAKERAHQQ-OH [CGA-N12, NH2–ALQGAKERAHQQ–COOH] | 1.18% | 87.91% | 9.53% | 1.38% | 1.44% | 88.36% | 8.64% | 1.56% | 9.31% | 43.21% | 32.09% | 15.39%
H-ERILSILRHQNLLKE-OH [CGA-N15, NH2–ERILSILRHQNLLKE–COOH] | 1.52% | 83.41% | 11.25% | 3.82% | 2.77% | 82.69% | 10.89% | 3.65% | 14.04% | 41.53% | 30.47% | 13.96%
H-GAKERAHQ-OH [CGA-N8, NH2–GAKERAHQ–COOH] | 3.45% | 84.89% | 9.87% | 1.79% | 2.13% | 87.79% | 8.56% | 1.34% | 8.11% | 43.76% | 34.27% | 13.86%
H-LQDLALQGAKERAHQQ-OH [CGA-N16, NH2–LQDLALQGAKERAHQQ–COOH] | 1.88% | 83.33% | 11.43% | 3.36% | 1.94% | 83.67% | 11.16% | 3.23% | 10.83% | 40.91% | 35.67% | 12.59%
